Compound potency records, mixed from different reports. Data source: NIAID ChemDB in PubChem.

Shared fields: tests in culture; agent: Candida albicans; endpoint: MBC

Conditions beyond the fields shown may differ between rows. An empty or dashed field is not shown.

SMILES	strain	value
CCOC[N+](C)(C)Cc1cc(N=Nc2ccc(Cl)cc2)ccc1O	-	651 µM
c1coc(-c2n[nH]c3c2CCCC3)c1	264/624	250 µg/mL
COc1ccc(C2=NN(C=O)C(c3cc(OC)c(OC)c(OC)c3)C2)cc1OC	DSM 70014	100 µg/mL
c1ccc(-c2n[nH]c3c2CCCC3)cc1	264/624	125 µg/mL
CCCCCCCCCCCC[N+](C)(C)CSCCCCCC	ATCC 10231	263 µM
Cc1ccc(N=Nc2ccc(O)c(C[N+](C)(C)COCC3CCC(C)CC3)c2)cc1	-	289 µM
COc1ccc(C2=CC(c3cc(OC)c(OC)c(OC)c3)N=C(SCC(C)=O)N2)cc1OC	DSM 70014	50 µg/mL
Cc1ccc(N=Nc2ccc(O)c(C[N+](C)(C)COC3CCCC3)c2)cc1	-	619 µM
COc1cc(/C=C/C(=O)c2ccc3c(c2)OCO3)cc(OC)c1OC	DSM 70014	50 µg/mL
CCCCCCCCOC[N+](C)(C)Cc1cc(N=Nc2ccc(C)cc2)ccc1O	-	69 µM
COc1ccc(C2=CC(c3cc(OC)c(OC)c(OC)c3)NC(=S)N2C)cc1OC	DSM 70014	50 µg/mL
CCCCCCCCCCCCOC[n+]1cccc(NCn2cnc3ccccc32)c1	ATCC 10231	17.5 µM
CCCCCCCCCCCC[N+](C)(C)COCC(CC)CCC	ATCC 10231	25.5 µM
COc1ccc(NC(=O)CSC2NC(c3ccc(OC)c(OC)c3)=CC(c3cc(OC)c(OC)c(OC)c3)N2)cc1	DSM 70014	100 µg/mL
CC1CCC(OC[N+](C)(C)Cc2cc(N=Nc3ccc(Cl)cc3)ccc2O)CC1	-	1106 µM
COc1ccc(C2=NN(C(C)=O)C(c3cc(OC)c(OC)c(OC)c3)C2)cc1OC	DSM 70014	25 µg/mL
CCCCCCCCCCCC[N+](C)(C)CSCCCCCCCC	ATCC 10231	24.5 µM
COc1cc(C2C=C(c3ccc4c(c3)OCO4)NC(SCC(=O)Nc3ccc(Cl)cc3)N2)cc(OC)c1OC	DSM 70014	100 µg/mL
CCCCCCCOC[n+]1cccc(NCn2cnc3ccccc32)c1	ATCC 10231	2574 µM
COc1ccc(C2=CC(c3cc(OC)c(OC)c(OC)c3)NC(=O)N2)cc1OC	DSM 70014	25 µg/mL
CCCCCCCCCCCCOC[n+]1cccc(NCNc2ccc[n+](COCCCCCCCCCCCC)c2)c1	ATCC 10231	187 µM
CCCCCCCCCCCC[N+](C)(C)COC(C)CCC	ATCC 10231	143 µM
CCCCCCCOC[n+]1cccc(NCn2nnc3ccccc32)c1	ATCC 10231	>1284 µM
CCCCCCCOC[N+](C)(C)Cc1cc(N=Nc2ccc(C)cc2)ccc1O	-	576 µM

3 of the rows above, restated:

SMILES	strain	value
CC1CCC(OC[N+](C)(C)Cc2cc(N=Nc3ccc(Cl)cc3)ccc2O)CC1	-	1106 µM
CCCCCCCCCCCC[N+](C)(C)COCC(CC)CCC	ATCC 10231	25.5 µM
c1coc(-c2n[nH]c3c2CCCC3)c1	264/624	250 µg/mL